Measured values from several laboratories, pooled; numbers as filed in NIAID ChemDB.

Common to all: toxicity to cultured cells; cells: MT-4; endpoint: CC50

Neighbouring rows are from separate reports. Blank or dashed fields: not listed here. CCn: concentration that lowers growth or viability of the cells by n%.

structure,method,result
C=C1[C@@H](CO)C[C@H]1n1cnc2c(N)ncnc21,,100 µM
Cc1cc(C#N)cc(C)c1Oc1nc(N/N=C/C2CCN(Cc3ccc(S(=O)(=O)N4CCOCC4)cc3)CC2)nc2ccsc12,MTT,14.5 µM
CCCCCCCCCCCC(=O)O[C@@]12C[C@@H](C)[C@]34C=C(C)[C@H](O)[C@@]3(O)[C@H](O)C(COC(=O)OC)=C[C@H](C4=O)[C@@H]1C2(C)C,MTT,3.2 µg/mL
NC(N)=NCCNc1ccc2[nH]ccc2c1.O=S(O)O,MTT,77.68 µM
O=c1[nH]cnc2c1ncn2[C@H]1CC[C@@H](CO)O1,,568 µM
Cc1cn([C@H]2C[C@H](N=[N+]=[N-])[C@@H](CO)O2)c(=O)[nH]c1=O,,154 µM
O=S1(=O)N=C(Nc2ccc(F)cc2)C=C(Cc2ccccc2)N1,MTT,255 µM
Cc1cc(C#N)cc(C)c1Oc1nc(N/N=C/C2CCN(Cc3cccc(C(N)=O)c3)CC2)nc2ccsc12,MTT,4.68 µM
COc1ccc(-c2coc3cc(O)c(CC=C(C)C)c(O)c3c2=O)cc1O,,>100 µg/mL
NS(=O)(=O)c1ccc(NC2=NS(=O)(=O)NC(Cc3ccccc3)=C2)cc1,MTT,318 µM
Cc1cn([C@H]2C[C@H](F)[C@@H](CO)O2)c(=O)[nH]c1=S,,480 µM
O=S1(=O)N=C(Nc2ccccc2Cl)C=C(Cc2cccc3ccccc23)N1,MTT,154 µM
CCNC(N)=NCCCNc1ccc2[nH]ccc2c1,MTT,52.67 µM
CCCCC/C=C\C/C=C\CCCCCCCC(=O)OCC1=C[C@H]2[C@@H]3C(C)(C)[C@]3(OC(C)=O)[C@H](OC(C)=O)[C@@H](C)[C@]2(O)[C@@H]2C=C(C)C(=O)[C@@]2(O)C1,,>62.5 µg/mL
Nc1ccn([C@H]2CC[C@@H](CO)O2)c(=O)n1,,160 µM
Nc1ccn([C@H]2CC[C@@H](CO)O2)c(=O)n1,,134 µM
CN(C)C(=O)N1CCN(C(=O)N2CCCC2)CC1,MTT,>125 µg/mL
O=S1(=O)N=C(Nc2ccccc2Cl)C=C(Cc2ccccc2)N1,MTT,182 µM
CCN(CC)C(=O)N1CCN(C(=O)N2CCN(C)CC2)CC1,MTT,>125 µg/mL
CCCCCCCCCCCC(=O)O[C@@]12C[C@@H](C)[C@]34C=C(C)[C@H](OC(=O)CCCCC)[C@@]3(O)[C@H](O)C(CO)=C[C@H](C4=O)[C@@H]1C2(C)C,MTT,6.23 µg/mL
COc1c2c(cc3oc(=O)c4c5ccc(O)cc5oc4c13)OC(C)(C)CC2,,>100 µg/mL
CC(C)c1c(Sc2ccccc2)n(COCc2ccccc2)c(=O)[nH]c1=O,,20 µM
COc1ccccc1NC1=NS(=O)(=O)NC(Cc2ccccc2)=C1,MTT,268 µM
N#Cc1c(N)cccc1S(=O)(=O)c1cc(Cl)ccc1Cl,,197 µM
CC(C)Nc1cccnc1N1CCN(C(=O)c2cc3cc(NS(C)(=O)=O)ccc3[nH]2)CC1,MTT,>4.38 µM
CNc1ncnc2c1ncn2[C@H]1CC[C@@H](CO)O1,,156.3 µM
O=C(CSc1nncnc1-c1ccccc1Cl)Nc1ccccc1Br,MTT,73 µM
CCCCCCCCCC(=O)O[C@@]12[C@H](OC(C)=O)[C@@H](C)[C@@]3(O)[C@@H](C=C(COC(C)=O)C[C@]4(O)C(=O)C(C)=C[C@@H]34)[C@@H]1C2(C)C,,>31.3 µg/mL
N#Cc1cc([C@H]2C[C@H](N=[N+]=[N-])[C@@H](CO)O2)cc(=O)[nH]1,MTT,>478 µM
NS(=O)(=O)c1ccc(NC(=O)CSc2nncnc2-c2cccc3ccccc23)c(Br)c1,MTT,23 µM
Nc1ncnc2c1ncn2CC1CN1CP(=O)(O)O,MTT,>100 µM
CCCCCCCCCCCCCCCCCC(=O)O[C@H]1C(C)=C[C@]23C(=O)[C@@H](C=C(CO)[C@@H](O)[C@]12O)[C@@H]1C(C)(C)[C@]1(OC(=O)CCCCCCCCCCC)C[C@H]3C,MTT,93.5 µg/mL
CC(=O)OCC1=C[C@H]2[C@@H]3C(C)(C)[C@]3(OC(C)=O)[C@H](OC(C)=O)[C@@H](C)[C@]2(O)[C@@H]2C=C(C)C(=O)[C@@]2(O)C1,,>125 µg/mL
CNC(=O)CSP(=O)(NCC(=O)OC)OC[C@@H]1CC[C@H](n2ccc(N)nc2=O)O1,,>100 µM
CC(C)(C)OC(=O)N1CCCN(C(=O)OC(C)(C)C)CCN(C(=O)OC(C)(C)C)CCCN(CCCCC(=O)Nc2ccn([C@H]3CC[C@@H](CO)O3)c(=O)n2)CC1,,1 µM
COC(=O)c1ccc(NC(=O)CSc2nncnc2-c2ccccc2Cl)c(Br)c1,MTT,59 µM
Cc1cn([C@H]2C[C@H](N=[N+]=[N-])[C@@H](CO)O2)c(=O)[nH]c1=O,MTT,>7.48 µM
N#Cc1c(F)cccc1S(=O)(=O)c1cc(Cl)cc(Cl)c1,,>188 µM
Nc1ncnc2c1ncn2C1CC(CO)(CO)C1,,>500 µM
NC(=O)c1[nH]c2ccc(Cl)cc2c1S(=O)(=O)c1ccccc1,MTT,>20 µM
CCNC(N)=NCCNc1ccc2[nH]ccc2c1,MTT,47.28 µM
Nc1ccn([C@H]2CC[C@@H](CO)O2)c(=O)n1,,199.7 µM
Cc1cn([C@H]2C[C@H](N=[N+]=[N-])[C@@H](CO)O2)c(=O)[nH]c1=O,,>1 µg/mL
Cc1cn(CC2CN2CP(=O)(O)O)c(=O)[nH]c1=O,MTT,>100 µM
Cc1cc(C)c(NC2=NS(=O)(=O)NC(Cc3ccccc3)=C2)c(C)c1,MTT,191 µM
c1cc(CN2CCNCCNCCNCC2)cc(CN2CCNCCNCCNCC2)c1,,2.3 µM
CONC(=O)c1cn(Cc2ccncc2)c(Sc2cc(Cl)cc(Cl)c2)c1C(C)C,MTT,40 µM
CCOC(=O)c1ccc(NC(=O)CSc2nncnc2-c2cccc3ccccc23)c(Br)c1,MTT,105 µM
Cc1cc(Cl)cc(S(=O)(=O)c2cccc(N)c2C#N)c1,,133 µM
c1cc(CN2CCCNCCNCCCNCC2)ccc1CN1CCCNCCNCCCNCC1,MTT,>1 µg/mL
N#Cc1ccc(Nc2nccc(C(O)c3ccccc3Cl)n2)cc1,MTT,29 µM
OCc1cn(Cc2ccncc2)c(Sc2cc(Cl)cc(Cl)c2)c1C1CCC1,MTT,94.6 µM
Cc1cc(C#N)cc(C)c1Oc1nc(N/N=C/C2CCN(Cc3ccccn3)CC2)nc2ccsc12,MTT,4.18 µM
C/C=C(/C)C(=O)O[C@@H]1[C@@H](C)[C@@]2(O)C(C=C(CO)C[C@]3(O)C(=O)C(C)=CC23)C2C(C)(C)[C@@]21OC(=O)C(C)CC,,>62.5 µg/mL
NC(=NCCCCNc1ccc2[nH]ccc2c1)N[N+](=O)[O-],MTT,>431 µM
O=C(CSc1nncnc1-c1cccc2ccccc12)Nc1ccccc1Cl,MTT,63 µM
CCCCCCCCCCCC(=O)O[C@@]12C[C@@H](C)[C@]34C=C(C)[C@H](O)[C@@]3(O)[C@H](O)C(COC(=O)c3ccccc3)=C[C@H](C4=O)[C@@H]1C2(C)C,MTT,6.2 µg/mL
CCOc1cc(C)cc(S(=O)(=O)c2cccc(N)c2C#N)c1,,167 µM
Cc1cc2c3c(c1)-c1c(O)cc(-c4cc5ccc(O)cc5o4)cc1OC3(c1ccc(O)cc1O)Oc1cc(O)ccc1-2,,9 µg/mL
CC(C)Nc1cccnc1N1CCN(C(=O)c2cc3cc(NS(C)(=O)=O)ccc3[nH]2)CC1,MTT,>4.4 µM
COc1cc(C(F)(F)F)cc(S(=O)(=O)c2cccc(N)c2C#N)c1,,94 µM
Nc1ncnc2c1ncn2[C@@H]1C[C@H](CO)[C@H]1CO,,12 µM
CC(C)(C)OC(=O)N1CCCN(C(=O)OC(C)(C)C)CCN(C(=O)OC(C)(C)C)CCCN(CCCCC(=O)OC[C@@H]2CC[C@H](n3ccc(N)nc3=O)O2)CC1,,10 µM
CNC(=O)CSP(=O)(NCC(=O)OC)OC[C@H]1O[C@@H](n2cc(C)c(=O)[nH]c2=O)C[C@@H]1F,,2500 µM
CC(C)c1c(CO)cn(Cc2ccncc2)c1Sc1cc(Cl)cc(Cl)c1,MTT,>200 µM
Cc1cc(C#N)cc(C)c1Oc1nc(N/N=C/C2CCN(Cc3ccc(S(C)(=O)=O)cc3)CC2)nc2ccsc12,MTT,4.62 µM
CC(=O)ON1COC[C@H]2O[C@@H](n3cc(C)c(=O)[nH]c3=O)C[C@@H]21,,207 µg/mL
Cc1cn([C@H]2C=C[C@@H](CO)O2)c(=O)[nH]c1=O,,>100 µM
O=S1(=O)N=C(Nc2ccc(Br)cc2)C=C(Cc2cccc3ccccc23)N1,MTT,140 µM
CC(C)=CCc1c(O)cc(O)c(CC=C(C)C)c1CCc1ccc(O)c(O)c1,,18 µg/mL
OC[C@@H]1CC[C@H](n2cnc3c(Cl)ncnc32)O1,,101.1 µM
NCCCCN(Cc1nc2ccccc2[nH]1)C1CCCc2cccnc21,,27.5 µM
Cc1cc(C#N)cc(C)c1Oc1nc(N/N=C/C2CCN(Cc3ccc([N+](=O)[O-])cc3)CC2)nc2ccsc12,MTT,13.4 µM
Cc1cn([C@H]2C=C[C@@H](CO)O2)c(=O)[nH]c1=O,,106 µM
Cc1cc(C#N)cc(C)c1Oc1nc(N/N=C/c2ccc(C#N)c(F)c2)nc2ccsc12,MTT,215 µM
c1cc2cc(NCCCNC3=NCCN3)ccc2[nH]1,MTT,166 µM
CCCCCCCCCCCC(=O)O[C@@]12[C@H](OC(=O)C(C)CC)[C@@H](C)[C@@]3(O)[C@@H](C=C(CO)C[C@]4(O)C(=O)C(C)=C[C@@H]34)[C@@H]1C2(C)C,,>62.5 µg/mL
O=S1(=O)N=C(Nc2ccc(Cl)cc2)C=C(Cc2ccccc2)N1,MTT,179 µM
Cc1cn([C@H]2C[C@H](N=[N+]=[N-])[C@@H](CO)O2)c(=O)[nH]c1=O,MTT,>93.55 µM
CCOCn1c(Sc2ccccc2)c(CC)c(=O)[nH]c1=S,,33 µM
CC(C)c1c(C(=O)O)cn(Cc2ccncc2)c1Sc1cc(Cl)cc(Cl)c1,MTT,>200 µM
COc1cc(C)cc(S(=O)(=O)c2cccc(N)c2C#N)c1,,>200 µM
COC(=O)[C@@H]1CCCN1P(=O)(OC[C@H]1O[C@@H](n2cc(C)c(=O)[nH]c2=O)CC1N=[N+]=[N-])Oc1ccccc1,MTT,165.6 µM
CCCCOC(=O)N1CCN(C(=O)N(C)C)CC1,MTT,39.3 µg/mL
Cc1cn([C@H]2C[C@H](F)[C@@H](CO)O2)c(=O)[nH]c1=O,,62.5 µM
NC(=NCC(=O)NCCNc1ccc2[nH]ccc2c1)N[N+](=O)[O-],MTT,>391 µM
Cc1cn([C@H]2C=C[C@@H](COC(=O)CCCC(=O)N3CCCN(C(=O)OC(C)(C)C)CCN(C(=O)OC(C)(C)C)CCCN(C(=O)OC(C)(C)C)CC3)O2)c(=O)[nH]c1=O,,50 µM